Data as given in PubChem BioAssay AID504761 (Drosophila RNAi Screening Center, 2011)
The deposit covers about 22,000 reagents; below is an unselected part of those with a known target gene and a result. Of all reagents, 116 (0.52%) were called active. 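Calls depend on retest data that are not deposited; infection was ranked per plate without normalising between plates; the unit of the infection score is not given.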 The raw values are shown without normalisation. No sequences are given here. Not given: the amount of reagent, the time to read-out.

Purpose: 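Genome-wide fly cell screen for genes dengue virus requires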 (primary screen)
System: D.Mel-2 cells from Drosophila
Reagent: long dsRNA against Drosophila genes
Conditions: infection with dengue virus type 2; dose and infection time not stated
Detection: 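Cells stained for dengue envelope protein and imaged; percent of infected cells per well on duplicate plates, ranked by infection, with stained nuclei counted for cell number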
Scale: infection score: higher = more virus-infected cells; cell count: higher = more cells in the well
Rule for the call: 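Very low infection ranking in both replicate wells (chance probability at most 0.065), then a retest showing infection dropped 1.5-fold or more at p below 0.05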
Meaning of the calls: active = confirmed: knock-down lowers infection; inactive = not picked or not confirmed

target gene,dsRNA,"infection score, replicate 1","infection score, replicate 2","cell count, replicate 1","cell count, replicate 2",call
scrib (GeneID 44448),DRSC13774,1.01,0.17,6042,6045,inactive
scrib (GeneID 44448),DRSC15809,,3.19,105,6452,inactive
scrib (GeneID 44448),DRSC17051,3.11,1.59,5169,757,inactive
scrib (GeneID 44448),DRSC25196,4.06,5.98,6239,5870,inactive
sff (GeneID 39732),DRSC10590,5.38,8.45,6339,6068,inactive
CG7884 (GeneID 32914),DRSC20065,2.22,0.34,5722,6114,inactive
CG7884 (GeneID 32914),DRSC25412,11,1.59,6524,6603,inactive
mRpL45 (GeneID 42671),DRSC16146,3.57,24.3,5096,4105,inactive
CG7084 (GeneID 42606),DRSC16194,1.08,2.35,6684,6763,inactive
Phae1 (GeneID 34637),DRSC02554,5.47,4.27,6691,6503,inactive
Syt14 (GeneID 40544),DRSC12331,8.18,5.28,6759,6138,inactive
B9d1 (GeneID 41888),DRSC14993,2,21,6261,5993,inactive
asRNA:CR31084 (GeneID 10178907),DRSC21649,1.2,1.81,5988,6337,inactive
CG6144 (GeneID 34443),DRSC02934,6.99,8.44,6369,6625,inactive
pHCl-2 (GeneID 43703),DRSC14306,1.22,2.54,737,7051,inactive
CG12224 (GeneID 41453),DRSC14480,2.24,4.9,6460,6513,inactive
CG10205 (GeneID 36650),DRSC05979,13.6,11.9,3820,5839,inactive
OS9 (GeneID 59167),DRSC02700,18.6,3.02,5156,6810,inactive
OS9 (GeneID 59167),DRSC27743,35.2,25.1,5311,5721,inactive
CG12849 (GeneID 37971),DRSC04129,1.87,29.3,6425,4739,inactive
CG10344 (GeneID 37565),DRSC04066,,,415,410,inactive
CG10344 (GeneID 37565),DRSC24394,2.78,7.36,6157,5900,inactive
pps (GeneID 41524),DRSC16057,2.7,6.96,5954,6525,inactive
pps (GeneID 41524),DRSC23652,5.02,5.49,5423,5716,inactive
pps (GeneID 41524),DRSC26594,1.3,3.07,6022,5572,inactive
CG9008 (GeneID 34779),DRSC01889,23.7,39.8,6124,5094,inactive
CG9008 (GeneID 34779),DRSC26675,0.8,1.46,6395,6362,inactive
sls (GeneID 44013),DRSC08528,13,18.7,6749,6176,inactive
sls (GeneID 44013),DRSC08540,4.72,5.34,6065,6834,inactive
sls (GeneID 44013),DRSC08670,2.24,2.91,5991,6462,inactive
Prosbeta5 (GeneID 45269),DRSC07517,1.66,4.44,2104,2569,inactive
Prosbeta5 (GeneID 45269),DRSC28939,,,304,433,inactive

Targets above whose gene name begins with P or p (7):
target gene,dsRNA,"infection score, replicate 1","infection score, replicate 2","cell count, replicate 1","cell count, replicate 2",call
Phae1 (GeneID 34637),DRSC02554,5.47,4.27,6691,6503,inactive
pHCl-2 (GeneID 43703),DRSC14306,1.22,2.54,737,7051,inactive
pps (GeneID 41524),DRSC16057,2.7,6.96,5954,6525,inactive
pps (GeneID 41524),DRSC23652,5.02,5.49,5423,5716,inactive
pps (GeneID 41524),DRSC26594,1.3,3.07,6022,5572,inactive
Prosbeta5 (GeneID 45269),DRSC07517,1.66,4.44,2104,2569,inactive
Prosbeta5 (GeneID 45269),DRSC28939,,,304,433,inactive

Continued:
target gene,dsRNA,"infection score, replicate 1","infection score, replicate 2","cell count, replicate 1","cell count, replicate 2",call
CG32829 (GeneID 318235),DRSC00961,6.13,6.12,6031,6443,inactive
CG32829 (GeneID 318235),DRSC22805,1.58,15.2,5711,6021,inactive
CG18649 (GeneID 39636),DRSC10334,1.92,1.61,6141,6222,inactive
spas (GeneID 42846),DRSC15929,6.26,4.1,6645,6215,inactive
CG6664 (GeneID 39903),DRSC10690,4.27,10.7,6393,5398,inactive
CG6664 (GeneID 39903),DRSC25430,2.8,2.19,6290,6347,inactive
prg (GeneID 34177),DRSC03324,7.55,2.45,6104,6602,inactive
tral (GeneID 39430),DRSC09779,11.8,4.59,5046,5401,inactive
tral (GeneID 39430),DRSC25049,1.64,3.36,6100,6186,inactive
NfI (GeneID 43782),DRSC17158,,11.2,395,3804,inactive
smg (GeneID 39034),DRSC11397,13.6,26.1,4810,6197,inactive
smg (GeneID 39034),DRSC28033,13.2,9.83,4946,6326,inactive
CkIIalpha-i3 (GeneID 38088),DRSC08651,9.03,12.8,6014,3955,inactive
CG30487 (GeneID 246646),DRSC05377,0.82,2.34,6194,5717,inactive
CG43773 (GeneID 33617),DRSC00287,11.2,11.3,6759,6684,inactive
CG43773 (GeneID 33617),DRSC00288,1.69,15.5,6332,6885,inactive
CG43773 (GeneID 33617),DRSC26834,8.16,24,5882,5621,inactive
vis (GeneID 36372),DRSC26134,6.88,4.41,4038,5983,inactive
Mes2 (GeneID 40514),DRSC11593,0.57,0.13,5129,5331,inactive
Mes2 (GeneID 40514),DRSC11632,9.07,11.4,5621,4761,inactive
CG15317 (GeneID 31898),DRSC18005,5.61,5.87,6592,6505,inactive
CG15317 (GeneID 31898),DRSC25924,6.89,10.3,6128,6205,inactive
viaf (GeneID 39364),DRSC10326,12,14.9,5196,5696,inactive
Cht9 (GeneID 37392),DRSC04079,4.91,22.5,7172,6574,inactive
Cht9 (GeneID 37392),DRSC24781,5.43,2.06,6155,5875,inactive
fs(1)Yb (GeneID 31262),DRSC18777,14.1,3.01,3695,6179,inactive
